PubChem BioAssay AID624099, ICCB-Longwood, 2012
Purpose: 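Human genes that papillomavirus E2 requires to repress the HPV18 LCR promoter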 (primary screen). Cell system: human C33A cervical carcinoma cells (HPV-negative) stably expressing BPV1 E2 and an HPV18 LCR luciferase reporter. Knock-down reagent: siRNA pool against human genes, 40 nM. Duration: 72 h. Detection: 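Per-well luciferase luminescence, z-scored on each plate against the plate mean and SD with control wells left out, then averaged across three replicate plates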. Scale: mean z-score and z-score: higher = stronger reporter signal, weaker E2 silencing. Rule for the call: 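Mean z ≥ 2 together with z ≥ 2 in two or more of the three replicates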.
The whole screen tested about 21,000 reagents; below is a random part of them. 497 of them (2.4%) were called active. 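Higher z means weaker E2 silencing; only reporter increases were scored, and knock-downs that hurt cell survival may mask genuine repressor factors.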 Reagents against one gene are numbered here. No sequences are given here.

no.	gene symbol	pool no.	mean z-score	z-score, replicate A	z-score, replicate B	z-score, replicate C	activity call
1	AGGF1 (GeneID 55109)	1	0.01	0.18	-0.4	0.25	inactive
2	CASTOR3P (GeneID 352954)	1	0.49	0.49	0.25	0.74	inactive
3	OR5AK2 (GeneID 390181)	1	-0.07	-0.3	0	0.08	inactive
4	MGC16384 (retired record) (GeneID 114130)	1	-0.31	-0.59	-0.19	-0.15	inactive
5	SGPP2 (GeneID 130367)	1	-0.1	-0.11	-0.02	-0.18	inactive
6	CTDNEP1 (GeneID 23399)	1	2.02	1.69	2.23	2.15	active
7	IFI6 (GeneID 2537)	1	-0.09	-0.41	0.06	0.08	inactive
8	ZNF28 (GeneID 7576)	1	2.54	2.43	2.61	2.57	active
9	LSM8 (GeneID 51691)	1	-0.22	0.01	-0.36	-0.31	inactive
10	SLF2 (GeneID 55719)	1	0.27	0.04	0.23	0.53	inactive
11	IL36R (GeneID 8808)	1	-0.08	-0.18	0.09	-0.16	inactive
12	ARHGDIG (GeneID 398)	1	1.13	1.05	0.87	1.45	inactive
13	IGFLR1 (GeneID 79713)	1	0.03	-0.39	0.45	0.03	inactive
14	RPSAP24 (GeneID 391462)	1	-0.52	-0.65	-0.55	-0.37	inactive
15	TSPY1 (GeneID 7258)	1	0.76	0.93	0.53	0.84	inactive
16	NCOA5 (GeneID 57727)	1	1.01	0.98	1.43	0.61	inactive
17	MGA (GeneID 23269)	1	1.85	1.88	2.19	1.49	inactive
18	RAB15 (GeneID 376267)	1	0.1	0.59	-0.05	-0.26	inactive
19	UQCR11 (GeneID 10975)	1	-0.07	-0.05	-0.05	-0.1	inactive
20	HSP90AA2P (GeneID 3324)	1	0.17	0.4	0.03	0.1	inactive
21	P4HTM (GeneID 54681)	1	-1.7	-1.78	-1.72	-1.58	inactive
22	BCAP31 (GeneID 10134)	1	-0.56	-0.45	-0.69	-0.52	inactive
23	CAMK4 (GeneID 814)	1	-0.07	-0.58	0.1	0.27	inactive
24	PRTFDC1 (GeneID 56952)	1	-0.67	-0.64	-0.75	-0.63	inactive
25	NPHP1 (GeneID 4867)	1	0.21	0.15	0.13	0.35	inactive
26	CLU (GeneID 1191)	1	1.17	1.06	1.24	1.22	inactive
27	PSG2 (GeneID 5670)	1	1.01	0.96	1.04	1.04	inactive
28	RGS11 (GeneID 8786)	1	-0.97	-0.64	-1.18	-1.09	inactive
29	LINC01904 (GeneID 388456)	1	-1.55	-1.52	-1.45	-1.7	inactive
30	TMEM229B (GeneID 161145)	1	-0.25	-0.29	-0.06	-0.4	inactive
31	URB1-DT (GeneID 84996)	1	0.42	0.73	0.2	0.33	inactive
32	GRK1 (GeneID 6011)	1	2.13	2.35	1.94	2.09	active
33	LOC387777 (retired record) (GeneID 387777)	1	0.17	0	0.23	0.27	inactive
34	PIM2 (GeneID 11040)	1	0.33	0.16	0.21	0.63	inactive
35	SEPTIN10 (GeneID 151011)	1	0.43	0.22	0.33	0.73	inactive
36	CYP4X1 (GeneID 260293)	1	0.07	0.02	-0.26	0.46	inactive
37	RFNG (GeneID 5986)	1	0.5	0.46	0.73	0.32	inactive
38	DNAJC5 (GeneID 80331)	1	0.47	0.46	0.6	0.36	inactive
39	PEBP1 (GeneID 5037)	1	-0.05	-0.14	0.08	-0.08	inactive
40	POMC (GeneID 5443)	1	-0.38	-0.43	-0.47	-0.24	inactive
41	DUS4L (GeneID 11062)	1	0.53	0.34	0.88	0.38	inactive
42	RAB19 (GeneID 401409)	1	-1.66	-1.42	-2.03	-1.51	inactive
43	RAB19 (GeneID 401409)	2	-2.47	-2.29	-2.76	-2.37	inactive
44	PROCA1 (GeneID 147011)	1	-0.39	-0.44	-0.64	-0.08	inactive
45	ANXA7 (GeneID 310)	1	-0.62	-0.59	-0.73	-0.55	inactive
46	ANKRD13C-DT (GeneID 11147)	1	0.88	0.8	1.09	0.74	inactive
47	CCL4L2 (GeneID 9560)	1	-1.11	-0.89	-1.25	-1.2	inactive
48	FAM184B (GeneID 27146)	1	1.12	1.66	0.95	0.74	inactive
49	LOC132706 (retired record) (GeneID 132706)	1	-0.22	-0.13	-0.48	-0.03	inactive
50	SH3RF3 (GeneID 344558)	1	-2.25	-2.07	-2.14	-2.55	inactive
51	FTCD (GeneID 10841)	1	-0.67	-0.74	-0.51	-0.77	inactive
52	NOTCH2NLA (GeneID 388677)	1	0.79	0.87	0.48	1.02	inactive
53	CMTM5 (GeneID 116173)	1	-2.34	-2.28	-2.43	-2.33	inactive
54	FOXR2 (GeneID 139628)	1	-0.49	-0.6	-0.36	-0.51	inactive
55	IFFO1 (GeneID 25900)	1	0.29	0.55	0	0.33	inactive
56	ITGB7 (GeneID 3695)	1	-0.96	-0.66	-1.2	-1.02	inactive
57	OSBPL5 (GeneID 114879)	1	1.03	1.04	1.33	0.73	inactive

Entries listed above marked active (3):
gene symbol	pool no.	mean z-score	z-score, replicate A	z-score, replicate B	z-score, replicate C	activity call
CTDNEP1 (GeneID 23399)	1	2.02	1.69	2.23	2.15	active
ZNF28 (GeneID 7576)	1	2.54	2.43	2.61	2.57	active
GRK1 (GeneID 6011)	1	2.13	2.35	1.94	2.09	active
